# Experimental data: patent publication US20170233441A1
# Legend:
# [1] = biological target: BG505.SOSIP.664.201C-433C HIV-1 Env ectodomain trimer (HIV-1 strain BG505); assay: sedimentation equilibrium analytical ultracentrifugation with excess CD4 d1d2
# [2] = biological target: BG505.SOSIP.664.201C-433C HIV-1 Env ectodomain trimer (HIV-1 strain BG505); assay: SPR
substance,measurement,setting,value
soluble CD4 (sCD4) (from UniProt P01730 26-396) (receptor; other documents disagree on this pair),CD4 molecules bound per trimer (CD4 molecules per trimer),[1],1
same,fold change of KD relative to SOSIP.664,[2],10 fold
same,fold change of off-rate relative to SOSIP.664,[2],10 fold
